Drawing on PubChem BioAssay AID1159565 (GlaxoSmithKline (GSK), 2015), this text covers IC50 for 1 compound.

The subject of this assay is T. cruzi-infected H9C2 cardiomyocytes, high-content imaging. Description: anti-T. cruzi activity in infected cardiomyocytes – imaging, H9C2 host cardiomyocytes, host toxicity (AID 1159565).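 Further: infected cells incubated 72 h after plating.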

Regarding `CC(C)(C)c1ccc(NC2(C(N)=O)CCN(Cc3ccccc3)CC2)cc1`, the half-maximal inhibitory concentration (IC50) (as a rule, the concentration that gives 50% inhibition) was 250 nM. Further, the IC50 (measured here: H9C2 host cell toxicity) is more than 50000 nM. This compound displayed a half-inhibitory concentration (IC50) (measured here: amastigotes per cell) of 160 nM.
